Measured values from several laboratories, pooled; numbers as filed in NIAID ChemDB.

All rows: host cell toxicity; endpoint: CC50

Lines come from different laboratories, so protocols vary. An empty or dashed field is not shown. CCn is the concentration with n% toxicity to the cells.

structure | cells | method | result
COc1cc(OC)nc(NC(=S)NC(=O)C2C(/C=C(/Cl)C(F)(F)F)C2(C)C)n1 | MDCK | MTS | >300 µM
FC(F)(F)c1ccc2c(NCCCN3CCN(c4ccnc5cc(Cl)ccc45)CC3)ccnc2c1 | Human foreskin fibroblasts | MTT / absorbance | 2.1 µM
CC(C)Cc1ccc(C(C)C(=O)NCc2ccccc2)cc1 | RAW 264.7 | resazurin / fluorescence | 100 µg/mL
Cc1cccc2c1OP(=O)(OC[C@H]1O[C@@H](n3cc(/C=C/Br)c(=O)[nH]c3=O)C[C@@H]1OC(=O)[C@H](N)C(C)C)OC2 | HELF |  | >128 µg/mL
CC(C)C(C(=O)NC(=O)NC(=O)NC(C)(C)C)c1ccc(Cl)cc1 | MDCK | MTS | >300 µM
Nc1nc2c(ncn2COCCO)c(=O)[nH]1 | CD4+ T lymphocytes |  | >250 µM
O=c1[nH]cnc2c1ncn2[C@H]1CC[C@@H](CO)O1 | HELA-CD4+ |  | 2.7 µM
Cc1cc(N2CC[N+](C)(C)CC2)c([N+](=O)[O-])c(N2CC[N+](C)(C)CC2)c1 | GMK |  | >322.9 µg/mL
Nc1ncc2c(ncn2COC(CO)CO)n1 | HSB-2 | MTT | 0.62 µM
CC(=O)OC(C1CC(C)C(=O)O1)C(C)C1C2C3(O)OC4(CCC12C)C(=CCC1C(C)(C)OC2CC(=O)OC21C4O)C3=O | MDA-MB-231 | MTT | 7.3 µg/mL
Cc1[nH]c(=S)nc2c1ncn2CCOCP(=O)(O)O | HB611 |  | 200 µM
COc1cc(-c2ccccc2)c(O)c(OC)c1O | ASK (Atlantic salmon kidney) | sulforhodamine / absorbance | >50 µM
FC(F)(F)c1ccc2c(NCCCN3CCN(c4ccnc5cc(C(F)(F)F)ccc45)CC3)ccnc2c1 | Human foreskin fibroblasts | MTT / absorbance | 1.75 µM
COc1cc(OC)nc(NC(=S)NC(=O)c2cnc(Cl)c(Cl)c2)n1 | MDCK | MTS | >300 µM
Nc1nccc2c1ncn2CCOCP(=O)(O)O | HB611 |  | 87 µM
Nc1nc2c(ncn2[C@H]2O[C@@H](CO)C[C@H]2F)c(=O)[nH]1 | PBM |  | >100 µM
CC(C)(C)NC(=O)NC(=S)NC(=O)c1ccc(-c2ccccc2Cl)o1 | MDCK | MTS | >300 µM
O=c1[nH]cnc(N2CC[N+]3(CC2)CC[N+]2(CCN(c4nc[nH]c(=O)c4[N+](=O)[O-])CC2)CC3)c1[N+](=O)[O-] | K562 |  | 150 µg/mL
O=c1[nH]c(=O)n([C@H]2O[C@@H](CO)C[C@H]2F)cc1F | PBM |  | >100 µM
O=c1[nH]c(=O)n([C@@H]2O[C@H](CO)[C@@H](O)[C@@H]2O)cc1/C=C/Br | CD4+ T lymphocytes |  | >250 µg/mL
Nc1nc2c(ncn2/C=C2/CC2(CO)CO)c(=O)[nH]1 | HeLaP4 |  | 0.068 µM
C[C@H]1[C@H](O)C(=O)CC2[C@]3(C)CC[C@@]4(C)C5CC(C)(C)CC[C@]5(C)CC[C@]4(C)C3CC[C@@]21C | P-388 | sulforhodamine / absorbance | >50 µM
O=[N+]([O-])c1c(C2CCCCCC2)ncnc1N1CC[N+]2(CC1)CC[N+]1(CCN(c3ncnc(C4CCCCCC4)c3[N+](=O)[O-])CC1)CC2 | L929 |  | >271.1 µg/mL
O=C(O)P(=O)(O)O | SupT1 |  | 134 µg/mL
Cc1nc(C2CCCCCC2)c([N+](=O)[O-])c(N2CC[N+]3(CC2)CC[N+]2(CCN(c4nc(C)nc(C5CCCCCC5)c4[N+](=O)[O-])CC2)CC3)n1 | GMK |  | >65.3 µg/mL
Cc1cccc2c1OP(=O)(OC[C@H]1O[C@@H](n3cc(/C=C/Br)c(=O)[nH]c3=O)C[C@@H]1OC(=O)[C@@H]1CCCN1)OC2 | HELF |  | 94.7 µg/mL
C[C@H]1[C@H](C)CC[C@]2(C(=O)O)CC[C@]3(C)C(=CC[C@@H]4[C@@]5(C)CC[C@H](O)C(C)(C)[C@@H]5CC[C@]43C)[C@H]12 | L6 cells | MTT | 12.7 µM
COc1cc(-c2ccccc2)c(OC)c(OC)c1O | P-388 | sulforhodamine / absorbance | 39.04 µM
c1cc(CN2CCCNCCNCCCNCC2)ccc1CN1CCCNCCNCCCNCC1 | P4R5 |  | >10 µM
O=[N+]([O-])c1ccc(N2CC[N+]3(CC2)CC[N+]2(CCN(c4ccc([N+](=O)[O-])cc4[N+](=O)[O-])CC2)CC3)c([N+](=O)[O-])c1 | GMK |  | >317.7 µg/mL
C[S@@](=O)CCCCN=C=S | HONE-1 | WST | 15.31 µM
Nc1ccn(C[C@@H](CO)OCP(=O)(O)O)c(=O)n1 | TPA-stimulated BCBL-1 |  | 113 µM
CN(C)c1cc(=O)n(CCOCP(=O)(O)O)c(N)n1 | L1210 |  | <10 µM
CNc1ncnc2c1ncn2[C@H]1O[C@@H](CO)C[C@H]1F | PBM |  | >100 µM
Nc1ccn(C[C@H]2COP(=O)(O)CO2)c(=O)n1 | CBMC | MTT | 157 µM
Nc1nc(=O)n([C@H]2O[C@@H](CO)C[C@H]2F)cc1Br | PBM |  | >100 µM
Nc1ncnc2c1ncn2CCOCP(=O)(O)O | CBMC | MTT | 42 µM
O=C1C(=O)N(CN2CCN(c3ccnc4cc(C(F)(F)F)ccc34)CC2)c2cccc(Br)c21 | Human foreskin fibroblasts | MTT / absorbance | 14 µM
Nc1ncnc2c1ncn2CC(CF)OCP(=O)(O)O | HB611 |  | >200 µM
CC(C)(C)NC(=O)NC(=S)NC(=O)C1C(/C=C(/Cl)C(F)(F)F)C1(C)C | MDCK | MTS | >300 µM
Nc1ncnc2c1ncn2CCOCP(=O)(O)O | TPA-stimulated BCBL-1 |  | 27 µM
ClCN1CC[N+]2(CC1)CC[N+]1(CCN(CCl)CC1)CC2 | K562 |  | 305.4 µg/mL
CO[C@H]1/C=C/O[C@@]2(C)Oc3c(C)c(O)c4c(O)c(c(/C=N/N5CCN(C)CC5)c(O)c4c3C2=O)NC(=O)/C(C)=C\C=C\[C@H](C)[C@H](O)[C@@H](C)[C@@H](O)[C@@H](C)[C@H](OC(C)=O)[C@@H]1C | RAW 264.7 |  | 700 µg/mL
O=C(O)P(=O)(O)O | SupT1 |  | 134 µM
COc1cc(O)cc2oc3cc(O)c(O)cc3c(=O)c12 | P-388 | sulforhodamine / absorbance | >50 µM
Cc1nc(Cl)c([N+](=O)[O-])c(N2CC[N+](C)(C)CC2)n1 | GMK |  | >483.6 µg/mL
C[C@H](N)C(=O)O[C@H]1C[C@H](n2cc(/C=C/Br)c(=O)[nH]c2=O)O[C@@H]1COP1(=O)OCc2ccccc2O1 | HELF |  | >128 µg/mL
Nc1ncnc2c1ncn2CCOCCP(=O)(O)O | HB611 |  | >400 µM
Nc1nc(=O)n([C@H]2O[C@@H](CO)C[C@H]2F)cc1Cl | PBM |  | >100 µM
Cc1cccc2c1OP(=O)(OC[C@H]1O[C@@H](n3cc(/C=C/Br)c(=O)[nH]c3=O)C[C@@H]1OC(=O)[C@H](N)CC(C)C)OC2 | HELF |  | >128 µg/mL
Nc1nc2c(ncn2CCOCP(=O)(O)O)c(=O)[nH]1 | HB611 |  | 6.3 µM
Nc1nc2c(ncn2[C@@H]2C[C@H](CO)[C@H]2CO)c(=O)[nH]1 | SupT1 |  | 15 µg/mL
Nc1nc2c(ncn2CCC(CO)CO)c(=O)[nH]1 | SupT1 |  | 170 µM
CC(C)=CC[C@H]1C[C@@]2(C[C@H]3CCC(C)(C)C=C3C)C(=O)[C@](C(=O)c3ccccc3)(C(=O)C3=C2OC(C)(C)CC3)C1(C)C | HT-29 | sulforhodamine / absorbance | >50 µM
Cc1cccc2c1OP(=O)(OC[C@H]1O[C@@H](n3cc(/C=C/Br)c(=O)[nH]c3=O)C[C@@H]1OC(=O)[C@H](C)N)OC2 | HELF |  | >128 µg/mL
Cc1cc(=O)nc2nc(NC(=O)c3ccc(-c4ccc([N+](=O)[O-])cc4)o3)sn12 | MDCK | MTS | >300 µM
O=C1C(=O)N(CCCNc2ccnc3cc(C(F)(F)F)ccc23)c2cccc(Br)c21 | Human foreskin fibroblasts | MTT / absorbance | 11 µM
COc1ncnc(N2CC[N+]3(CC2)CC[N+]2(CCN(c4ncnc(OC)c4[N+](=O)[O-])CC2)CC3)c1[N+](=O)[O-] | K562 |  | >304.2 µg/mL
CC(C)Cc1ccc(C(C)C(=O)NC2CCCC2)cc1 | RAW 264.7 | resazurin / fluorescence | 325 µg/mL
Nc1nc2c(ncn2C[C@H](CO)OCP(=O)(O)O)c(=O)[nH]1 | HB611 |  | <200 µM
O=c1[nH]c(=O)n([C@H]2C[C@H](O)[C@@H](CO)O2)cc1C(F)(F)F | CBMC | MTT | 71 µM
CC(=O)O[C@H]1C[C@H](n2cc(/C=C/Br)c(=O)[nH]c2=O)O[C@@H]1COP1(=O)OCc2ccccc2O1 | HELF |  | 70 µg/mL
Cc1cc(C)nc(NC(=S)NC(=O)c2cccnc2Cl)n1 | MDCK | MTS | >300 µM
COC1=CC23CCCN2CCc2cc4c(cc2C3C1O)OCO4 | EBTR |  | >100 µM
CC(=O)CCC(=O)O[C@H]1C[C@H](n2cc(/C=C/Br)c(=O)[nH]c2=O)O[C@@H]1COP1(=O)OCc2cccc(C)c2O1 | HELF |  | 128 µg/mL

Repeating the first 8 entries:

structure | cells | method | result
COc1cc(OC)nc(NC(=S)NC(=O)C2C(/C=C(/Cl)C(F)(F)F)C2(C)C)n1 | MDCK | MTS | >300 µM
FC(F)(F)c1ccc2c(NCCCN3CCN(c4ccnc5cc(Cl)ccc45)CC3)ccnc2c1 | Human foreskin fibroblasts | MTT / absorbance | 2.1 µM
CC(C)Cc1ccc(C(C)C(=O)NCc2ccccc2)cc1 | RAW 264.7 | resazurin / fluorescence | 100 µg/mL
Cc1cccc2c1OP(=O)(OC[C@H]1O[C@@H](n3cc(/C=C/Br)c(=O)[nH]c3=O)C[C@@H]1OC(=O)[C@H](N)C(C)C)OC2 | HELF |  | >128 µg/mL
CC(C)C(C(=O)NC(=O)NC(=O)NC(C)(C)C)c1ccc(Cl)cc1 | MDCK | MTS | >300 µM
Nc1nc2c(ncn2COCCO)c(=O)[nH]1 | CD4+ T lymphocytes |  | >250 µM
O=c1[nH]cnc2c1ncn2[C@H]1CC[C@@H](CO)O1 | HELA-CD4+ |  | 2.7 µM
Cc1cc(N2CC[N+](C)(C)CC2)c([N+](=O)[O-])c(N2CC[N+](C)(C)CC2)c1 | GMK |  | >322.9 µg/mL